In publication PMC8206078, “Identification of pyrogallol as a warhead in design of covalent inhibitors for the SARS-CoV-2 3CL protease” (Nature Communications, 2021):

Biological target: SARS-CoV-2 3CLpro (Severe acute respiratory syndrome coronavirus 2, UniProt P0DTD1)
Assay: FRET-based protease assay, SARS-CoV-2 3CLpro
Assay type: biochemical
Details: 0.048828 µM; individual replicates of independent experiments

CC(C)CCOc1cc(O)c2c(=O)c(O)c(-c3cc(O)c(O)c(O)c3)oc2c1
inhibition ratio (%): -9.486% and -2.128%

For part of its entries the source gives two or more results. The other results are left out here. There may be further records. The values listed for one entry differ for a reason that is not stated; dose, time, organism, isomer or construct need not be as stated for each record.
